A mixed list of measured activities; the numbers were collected in NIAID ChemDB.

Shared fields: whole-cell or culture tests; organism: Varicella zoster virus; endpoint: EC50

Two numbers with a dash give a range or band. An empty or dashed field is not shown. Rows are shuffled and stem from different studies. ECn is the concentration giving n% inhibition of infection, replication or growth.

compound	strain	cells	method	result
Nc1nc2c(ncn2COC(CO)CO)c(=O)[nH]1	Oka acyclovir-resistant	HEL	cytopathic effect	9.9 µM
COC(c1cn([C@H]2C[C@H](O)[C@@H](CO)O2)c(=O)[nH]c1=O)C(Br)Br	ELLEN	HFF	plaque count	>225 µM
COC(O)[C@@H]1OC12[C@@H](CO[Si](C)(C)C(C)(C)C)O[C@@H](n1cc(C)c(=O)[nH]c1=O)[C@@H]2O[Si](C)(C)C(C)(C)C		MRC-5	plaque count	>20 µM
Nc1ncnc2c1ncn2C[C@@H](CO)OCP(=O)(O)O		WI-38	plaque count	0.6 µM
COC(c1cn([C@H]2C[C@H](O)[C@@H](CO)O2)c(=O)[nH]c1=O)C(Cl)I	ELLEN	HFF	plaque count	155 µM
O=c1[nH]c(=O)n([C@H]2C[C@H](O)[C@@H](CO)O2)cc1/C=C/I	Batson	HEF	plaque count	0.0012 µg/mL
Cc1cn([C@@H]2O[C@H](CO)[C@@H](O)[C@@H]2O)c(=O)[nH]c1=O	Kawaguchi acyclovir-resistant mutant A6		plaque count	0.0104 µg/mL
CCCCCCc1cc2cn([C@H]3C[C@H](O)[C@@H](CO)O3)c(=O)nc2[nH]1	07/1 (TK-)	HEL	plaque count	>50 µM
O=c1c2ncn(COC(CO)CO)c2nc2[nH]c(-c3ccccc3)cn12	OKA	HEL	plaque count	0.4 µg/mL
C[C@H]1[C@H](O)[C@@H](CO)O[C@H]1n1cc(Br)c(N)nc1=O	CAQU	MRC-5	plaque count	12 µg/mL
CC(=O)OCCOCN1c2nc(Cc3ccccc3)[nH]c2C(N)=NS1(=O)=O	YS/R (TK-)	HEL	plaque count	>50 µg/mL
Nc1ncc2c(ncn2/C=C2/CC2CO)n1			ELISA	>100 µM
Nc1nc2ncn(/C=C3\C(F)C3(CO)CO)c2c(=O)[nH]1		HFF	cytopathic effect	>300 µM
Nc1nc2c(ncn2CCC(CO)CO)c(=O)[nH]1	5 isolates	MRC-5	plaque count	3.1 µg/mL
COC(c1cn([C@H]2C[C@H](O)[C@@H](CO)O2)c(=O)[nH]c1=O)C(Cl)Cl	ELLEN	HFF	plaque count	13.8 µM
O=C(O)P(=O)(O)O	Oka CF1742-resistant	HEL	cytopathic effect	35.3 µM
COC(=O)[C@@H]1O[C@]12[C@@H](CO[Si](C)(C)C(C)(C)C)O[C@@H](n1ccc(=O)[nH]c1=O)[C@@H]2O[Si](C)(C)C(C)(C)C		MRC-5	plaque count	>20 µM
Nc1nc2c(ncn2[C@@H]2O[C@H](CO)[C@H]2CO)c(=O)[nH]1	TK+/YS	HEL	plaque count	2.1 µg/mL
COC(=O)/C=C1/[C@@H](O[Si](C)(C)C(C)(C)C)[C@H](n2ccc(=O)[nH]c2=O)O[C@@H]1CO[Si](C)(C)C(C)(C)C		MRC-5	plaque count	1.6 µM
NC1=NS(=O)(=O)N(Cc2ccccc2)c2nc[nH]c21	YS	HEL	plaque count	>50 µg/mL
Nc1nc2c(ncn2COC(CO)CO)c(=O)[nH]1	YS	HEL	cytopathic effect	2.6 µM
O=c1[nH]c(=O)n([C@H]2C[C@H](O)[C@@H](CO)O2)cc1I	OKA	HEF	plaque count	0.43 µg/mL
CC(O)CCCCCC(CCCCCCCCCCCCCC1CC(=O)OC[C@H]2O[C@@H](OC(CCCCCCCCCCCC(CCCCCC(C)O)O[C@@H]3O[C@H](CO)[C@@H](O)[C@H](O)[C@H]3O)CC(=O)OC[C@@H]3O[C@H](O1)[C@@H](O)[C@H](O)[C@H]3O)[C@H](O)[C@@H](O)[C@@H]2O)O[C@@H]1O[C@H](CO)[C@@H](O)[C@H](O)[C@H]1O	OKA	VERO	cytopathic effect	3 µg/mL
Nc1nc2c(ncn2[C@H]2C=C[C@@H](CO)CC2)c(=O)[nH]1		VERO	cytopathic effect	1–10 µM
C[C@H]1[C@H](O)[C@@H](CO)O[C@H]1n1cc(I)c(N)nc1=O	Kanno-Kohmura	MRC-5	plaque count	>50 µg/mL
Nc1ncnc2c1ccn2[C@@H]1C[C@H](O)[C@@H](O)[C@H]1O	YS	HEL		>50 µg/mL
CCCCCCCCCCc1cc2cn([C@H]3C[C@H](O)[C@@H](CO)O3)c(=O)nc2n1CC	YS	HEL	plaque count	>5 µM
O=c1[nH]c(=O)n([C@H]2C[C@H](O)[C@@H](CO)O2)cc1/C=C/Br	OKA	HEL	cytopathic effect	0.0074 µM
Nc1nc(N)c2ncn([C@@H]3O[C@H](CO)[C@H]3CO)c2n1	TK+/YS	HEL	plaque count	3.4 µg/mL
Nc1ncc2ncn(/C=C3\CC3CO)c2n1			ELISA	>100 µM
CC(NC(=S)Nc1ccc(NC(=O)c2ccccc2F)cc1)c1ccc(F)cc1				0.6 µM
CCc1cn([C@H]2C[C@H](O)[C@@H](CO)O2)c(=O)[nH]c1=O	VEX411	HEF	cytopathic effect	7 µg/mL
NC(=S)c1cn(COCCO)c2ncnc(N)c12	ELLEN	HFF	plaque count	46 µM
Nc1nc2c(ncn2CCC(CO)CO)c(=O)[nH]1		VERO	cytopathic effect	10–100 µM
O=c1[nH]c(=O)n(C[C@]2(CO)C[C@H]2CO)cc1/C=C/Br	Kawaguchi	HEL	plaque count	0.67 µg/mL
CCCCCCCCCCc1cc2cn([C@H]3C[C@H](O)[C@@H](CO)O3)c(=O)nc2n1CCC	YS	HEL	plaque count	>5 µM
Nc1nc2c(ncn2CCC(CO)CO)c(=O)[nH]1	Oka BVaraU-resistant	HEL	cytopathic effect	64.8 µM
CN[C@H]1C[C@@H](n2cnc3c(N)ncnc32)[C@H](O)[C@@H]1O		HFF		81.7 µg/mL
Nc1nc2c(ncn2C=C2CC2CO)c(=O)[nH]1		VERO	cytopathic effect	10–100 µM
CC1(C)[C@H](CCO)C[C@@H]1n1nnc2c(N)ncnc21	YS (TK+)		plaque count	3.5 µg/mL
COc1nc(N)nc2c1ncn2/C=C1/C[C@H]1CO		HFF		24 µM
COc1cc(OC)c(NC(=S)Nc2ccc(NC(C)=O)cc2)cc1Cl	ELLEN	HFF		>20 µM
Cn1cc(C(=O)NCc2ccc(Cl)cc2)c(=O)c2cc(CN3CCOCC3)ccc21	CA varicella isolate	HFF	plaque count	0.5 µM
CC1(C)[C@H](CCO)C[C@@H]1n1cnc2c(Cl)ncnc21	YS (TK+)		plaque count	>50 µg/mL
COC(=O)[C@H](C)NP(=O)(OC[C@H]1C/C1=C/n1cnc2c(N)nc(N)nc21)Oc1ccccc1		HFF		1 µM
COC(=O)/C=C1/[C@@H](O[Si](C)(C)C(C)(C)C)[C@H](n2cc(C)c(=O)[nH]c2=O)O[C@@H]1CO[Si](C)(C)C(C)(C)C		MRC-5	plaque count	4.4 µM
COC(=O)[C@H](C)NP(=O)(OC[C@H]1C/C1=C/n1cnc2c(OC)nc(N)nc21)Oc1ccccc1		HFF		0.12 µM
O=c1nc2oc(CCCC3OCCO3)cc2cn1[C@H]1C[C@H](O)[C@@H](CO)O1	OKA	HEL	plaque count	>200 µM
COC(c1cn([C@H]2C[C@H](O)[C@@H](CO)O2)c(=O)[nH]c1=O)C(Br)I	ELLEN	HFF	plaque count	93 µM
Nc1nc2c(ncn2[C@@H]2C[C@H](CO)[C@H]2CO)c(=O)[nH]1	(TK-)/YS/R	HEL	plaque count	0.8 µg/mL
Nc1nc2c(ncn2C[C@]2(CO)C[C@H]2CO)c(=O)[nH]1	11 isolates	HEL	plaque count	0.097 µg/mL
CC(C)(C)[Si](C)(C)OC[C@H]1O[C@@H](n2ccc(=O)[nH]c2=O)[C@H](O[Si](C)(C)C(C)(C)C)[C@@]12O[C@H]2C(=O)NN		MRC-5	plaque count	4 µM
CCCCCCCCc1cc2cn([C@H]3C[C@H](O)[C@@H](CO)O3)c(=O)nc2o1	OKA	HEF		0.008 µM
CCCCCCOCCCc1cc2cn([C@H]3C[C@H](O)[C@@H](CO)O3)c(=O)nc2o1	YS	HEL	plaque count	8.1 µM
CCCCCCCC/C=C/CCCCCCCC(=O)O	YS	HEL	cytopathic effect	>100 µM
O=C(O)CP(=O)(O)O	Oka CF1742-resistant	HEL	cytopathic effect	51.7 µM
CCCCCCCCCCCCc1cc2cn([C@H]3C[C@H](O)[C@@H](CO)O3)c(=O)nc2[nH]1	YS/R (TK-)	HEL	plaque count	31 µM
O=c1[nH]c(=O)n([C@H]2C[C@H](O)[C@@H](CO)O2)cc1/C=C/Br	VEX411	HEF	cytopathic effect	0.01 µg/mL
O=c1[nH]c(=O)n([C@H]2C[C@H](O)[C@@H](CO)O2)cc1C(O)C(Br)Br	ELLEN	HFF	plaque count	6.3 µM
O=C(O)CP(=O)(O)O	Kawaguchi acyclovir-resistant mutant A6		plaque count	1.56 µg/mL
CCCCCOCCCCc1cc2cn([C@H]3C[C@H](O)[C@@H](CO)O3)c(=O)nc2o1	YS/R (TK-)	HEL	plaque count	>50 µM

For reference, 4 entries again:

compound | strain | cells | method | result
CCc1cn([C@H]2C[C@H](O)[C@@H](CO)O2)c(=O)[nH]c1=O | VEX411 | HEF | cytopathic effect | 7 µg/mL
COC(=O)[C@@H]1O[C@]12[C@@H](CO[Si](C)(C)C(C)(C)C)O[C@@H](n1ccc(=O)[nH]c1=O)[C@@H]2O[Si](C)(C)C(C)(C)C |  | MRC-5 | plaque count | >20 µM
CC(=O)OCCOCN1c2nc(Cc3ccccc3)[nH]c2C(N)=NS1(=O)=O | YS/R (TK-) | HEL | plaque count | >50 µg/mL
COC(=O)/C=C1/[C@@H](O[Si](C)(C)C(C)(C)C)[C@H](n2ccc(=O)[nH]c2=O)O[C@@H]1CO[Si](C)(C)C(C)(C)C |  | MRC-5 | plaque count | 1.6 µM